Experimental data: PubChem BioAssay AID504761 (Drosophila RNAi Screening Center, 2011)
Test: 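Insect host genes that dengue virus relies on to spread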 (primary screen). Cell system: D.Mel-2 cells from Drosophila. Reagents: long dsRNA against Drosophila genes. Conditions: infection with dengue virus type 2; dose and infection time not stated. Measurement: 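Per well on two replicate plates, imaging gave the percent of cells positive for viral envelope protein, ranked by infection, and a nuclear count of cells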. Direction: infection score: higher = more virus-infected cells. Hit rule: 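Very low infection ranking in both replicate wells (chance probability at most 0.065), then a retest showing infection dropped 1.5-fold or more at p below 0.05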. Meaning of the calls: active = confirmed: knock-down lowers infection; inactive = not picked or not confirmed.
In all, the deposit lists about 22,000 reagents; shown is an unselected part of those that have a named target and a result. Over the whole deposit, 116 (0.52%) are marked active. 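Calls depend on retest data that are not deposited; infection was ranked per plate without normalising between plates; the unit of the infection score is not given.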 Reagents against one gene are numbered here. A plus sign joins genes that one reagent is predicted to hit. Not all columns of the deposit are shown. Not stated in the record: the amount of reagent, the time to read-out.

gene	reagent no.	infection score, replicate 1	infection score, replicate 2	outcome
CG5098	1	11.3	4.93	inactive
CG5098	2	4.88	3.97	inactive
CG33303	1	6.16	4.08	inactive
fzy	1	18.8	13.8	inactive
CG14327	1	8.87	1.86	inactive
gom	1	30.6	9.86	inactive
Ptx1	1	2.75	4.59	inactive
Ptx1	2	0.73	10.2	inactive
CG9114	1		3.02	inactive
CG15172	1	8.67	5.82	inactive
CG15172	2	8.97	16.5	inactive
mTTF	1		20.6	inactive
CG10375	1	16.1	5.55	inactive
Vha100-3	1	0.7	0.5	inactive
Mec2	1	2.23	5.43	inactive
Mec2	2	8.38	7.68	inactive
chp	1	9.97	2.08	inactive
chp	2	19.4	4.56	inactive
SsRbeta	1	2.92	2.46	inactive
Ogdh	1	2.57	9.59	inactive
Ogdh	2	5.26	3.53	inactive
CG18417	1	2.12	4.44	inactive
CG18417	2	4.26	2.72	inactive
CG11986	1	4.19	6.12	inactive
CG11986	2	10	10.8	inactive
O-fut2	1	1.23	0.89	inactive
Nse4	1	5.9	3.09	inactive
Nse4	2	10.7	9.36	inactive
CG15571	1	0.85	6.67	inactive
CG15571	2	8.06	32.1	inactive
Mnt	1	3.47	12.5	inactive
Mnt	2	2.01	6.25	inactive
Sptz	1	3.35	11.3	inactive
Sptz	2	18.3	11.9	inactive
Vps13B	1	6.51	4.97	inactive
rdog	1	1.6	4.01	inactive
rdog	2	3.21	4.76	inactive
Sox21b	1	2.49	0.93	inactive
Sox21b	2	19.8	13.2	inactive
wash	1	10.5	6.33	inactive
Taldo	1	8.13	33.3	inactive
Taldo	2	21.3	13.3	inactive
TrissinR	1	2.12	3.41	inactive
TrissinR	2	1.58	3.09	inactive
TrissinR	3	1.06	0.73	inactive
TrissinR	4	1.7	3.24	inactive
TrissinR	5	10.8	7.35	inactive
CG4982	1	7.34	1.79	inactive
Prtl99C	1	4.66	5.13	inactive
dpr8	1	6.15	9.38	inactive
dpr8	2	31.8	25.4	inactive
dpr8	3	19.4	15.6	inactive
dpr8	4	11.9	12.4	inactive
CG42490 (retired record)	1	1.57	6.14	inactive
CG42490 (retired record)	2	5.27	0.81	inactive
ato	1	2.52	3.03	inactive
CG4741	1	9.62	19	inactive
CG4741	2	7.76	2.94	inactive
CG5731	1	8.08	3.68	inactive
CG5731	2	2.5	5.79	inactive
CG5466	1	3.25	4.62	inactive
CG5466	2	5.71	6.08	inactive
betaNACtes1	1	11.8	6.31	inactive
betaNACtes1	2	10.3	2.38	inactive
CG8677	1	15.2	26.4	inactive
CG8677	2	4.87	2.91	inactive
CG7430	1	5.3	8.57	inactive
CG7168	1	9.54	22.9	inactive
fun (retired record)	1	13.4	5.3	inactive
Ugt37C2	1	20.2	2.41	inactive
CG7950 + Rpp14a	1	3.54	7.88	inactive
CG7950 + Rpp14a	2	9.41	0.88	inactive
Ac78C	1	4.63	0.94	inactive
Ac78C	2	4.75	5.53	inactive
Ac78C	3	22.6	23.3	inactive
